# Values of other authors, collected in US20230331815A1 (priority 2020, published 2023).
# Structures can show the parent of a compound that is named as a salt.
# Legend:
# SARS-CoV = details: HeLa cell expressing ACE2 and TMPRSS2; cited from earlier work
# HCoV-NL63 = details: cited from earlier work
# COVID-19 infection = details: two doses of 300 ug/kg with a gap of 3 days, healthcare workers; cited from earlier work
Molecule,infection by SARS-CoV (SARS-CoV),infection by HCoV-NL63 (HCoV-NL63),reduction of COVID-19 infection (COVID-19 infection)
CN(C)C(=O)COC(=O)Cc1ccc(OC(=O)c2ccc(NC(=N)N)cc2)cc1 [camostat mesylate],partially blocks infection,partially blocks infection,
Ivermectin,,,73%
